{"source": "PubChem BioAssay AID624099 | ICCB-Longwood, 2012", "purpose": "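Human genes that papillomavirus E2 requires to repress the HPV18 LCR promoter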 (primary screen)", "system": "human C33A cervical carcinoma cells (HPV-negative) stably expressing BPV1 E2 and an HPV18 LCR luciferase reporter", "reagent": "siRNA pool against human genes, 40 nM", "timing": "72 h", "measurement": "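HPV18 LCR reporter light per well, converted to plate-wise z-scores that exclude control wells, and averaged over triplicate plates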", "reading the numbers": "mean z-score and z-score: higher = stronger reporter signal, weaker E2 silencing", "active means": "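Hit if mean z-score reaches 2 and two or more of three replicate z-scores also reach 2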", "note": "Here is one part, drawn at random, of about 21,000 reagents. 497 of all reagents (2.4%) count as active. 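Higher z means weaker E2 silencing; only reporter increases were scored, and knock-downs that hurt cell survival may mask genuine repressor factors.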"}
The opening 3 entries, ahead of the listing:
{"Gene":"FLYWCH1L (retired record)","mean z-score":2.27,"z-score, replicate A":2.03,"z-score, replicate B":2.33,"z-score, replicate C":2.47,"Call":"active"}
{"Gene":"LOC147942 (retired record)","mean z-score":0.15,"z-score, replicate A":0.07,"z-score, replicate B":0.35,"z-score, replicate C":0.03,"Call":"inactive"}
{"Gene":"SLC25A48-AS1","mean z-score":-2.1,"z-score, replicate A":-2.04,"z-score, replicate B":-2.42,"z-score, replicate C":-1.84,"Call":"inactive"}

Main list, from the first entry:
{"Gene":"FLYWCH1L (retired record)","mean z-score":2.27,"z-score, replicate A":2.03,"z-score, replicate B":2.33,"z-score, replicate C":2.47,"Call":"active"}
{"Gene":"LOC147942 (retired record)","mean z-score":0.15,"z-score, replicate A":0.07,"z-score, replicate B":0.35,"z-score, replicate C":0.03,"Call":"inactive"}
{"Gene":"SLC25A48-AS1","mean z-score":-2.1,"z-score, replicate A":-2.04,"z-score, replicate B":-2.42,"z-score, replicate C":-1.84,"Call":"inactive"}
{"Gene":"LOC401553 (retired record)","mean z-score":-0.43,"z-score, replicate A":-0.66,"z-score, replicate B":-0.13,"z-score, replicate C":-0.5,"Call":"inactive"}
{"Gene":"TPRN","mean z-score":0.7,"z-score, replicate A":0.76,"z-score, replicate B":0.73,"z-score, replicate C":0.61,"Call":"inactive"}
{"Gene":"LINC00469","mean z-score":-0.03,"z-score, replicate A":0.69,"z-score, replicate B":-0.61,"z-score, replicate C":-0.17,"Call":"inactive"}
{"Gene":"SMIM20","mean z-score":0.75,"z-score, replicate A":0.03,"z-score, replicate B":1.02,"z-score, replicate C":1.19,"Call":"inactive"}
{"Gene":"SP100","mean z-score":-0.61,"z-score, replicate A":-0.97,"z-score, replicate B":-0.5,"z-score, replicate C":-0.35,"Call":"inactive"}
{"Gene":"CIB4","mean z-score":0.31,"z-score, replicate A":0.36,"z-score, replicate B":0.53,"z-score, replicate C":0.05,"Call":"inactive"}
{"Gene":"C16orf82","mean z-score":0.14,"z-score, replicate A":0.59,"z-score, replicate B":0.23,"z-score, replicate C":-0.4,"Call":"inactive"}
{"Gene":"AHNAK","mean z-score":0.59,"z-score, replicate A":0.66,"z-score, replicate B":0.48,"z-score, replicate C":0.63,"Call":"inactive"}
{"Gene":"IGSF1","mean z-score":-0.93,"z-score, replicate A":-0.94,"z-score, replicate B":-0.96,"z-score, replicate C":-0.89,"Call":"inactive"}
{"Gene":"CAMTA2","mean z-score":-1.58,"z-score, replicate A":-1.62,"z-score, replicate B":-1.63,"z-score, replicate C":-1.49,"Call":"inactive"}
{"Gene":"DHX34","mean z-score":1.68,"z-score, replicate A":1.45,"z-score, replicate B":1.81,"z-score, replicate C":1.79,"Call":"inactive"}
{"Gene":"STOX2","mean z-score":0.78,"z-score, replicate A":0.7,"z-score, replicate B":0.79,"z-score, replicate C":0.86,"Call":"inactive"}
{"Gene":"CHRNG","mean z-score":-0.63,"z-score, replicate A":-0.73,"z-score, replicate B":-0.51,"z-score, replicate C":-0.67,"Call":"inactive"}
{"Gene":"LOC388229 (retired record)","mean z-score":-0.75,"z-score, replicate A":-1.13,"z-score, replicate B":-0.63,"z-score, replicate C":-0.49,"Call":"inactive"}
{"Gene":"LRRK2","mean z-score":0.07,"z-score, replicate A":-0.37,"z-score, replicate B":0.35,"z-score, replicate C":0.23,"Call":"inactive"}
{"Gene":"CARMIL3","mean z-score":-1.05,"z-score, replicate A":-1.45,"z-score, replicate B":-0.83,"z-score, replicate C":-0.89,"Call":"inactive"}
{"Gene":"C1orf159","mean z-score":0.91,"z-score, replicate A":1.09,"z-score, replicate B":1.06,"z-score, replicate C":0.56,"Call":"inactive"}
{"Gene":"GNL3L","mean z-score":-1.26,"z-score, replicate A":-1.49,"z-score, replicate B":-1.73,"z-score, replicate C":-0.58,"Call":"inactive"}
{"Gene":"SYCP2L","mean z-score":1.05,"z-score, replicate A":0.7,"z-score, replicate B":1.12,"z-score, replicate C":1.34,"Call":"inactive"}
{"Gene":"CACFD1","mean z-score":1.21,"z-score, replicate A":1.22,"z-score, replicate B":1.31,"z-score, replicate C":1.08,"Call":"inactive"}
{"Gene":"LINC01089","mean z-score":-1.91,"z-score, replicate A":-1.91,"z-score, replicate B":-1.86,"z-score, replicate C":-1.96,"Call":"inactive"}
{"Gene":"CT83","mean z-score":-1.21,"z-score, replicate A":-1.28,"z-score, replicate B":-0.92,"z-score, replicate C":-1.44,"Call":"inactive"}
{"Gene":"LOC389782 (retired record)","mean z-score":-0.76,"z-score, replicate A":-0.48,"z-score, replicate B":-0.89,"z-score, replicate C":-0.9,"Call":"inactive"}
{"Gene":"MTA2","mean z-score":-0.79,"z-score, replicate A":-0.64,"z-score, replicate B":-0.65,"z-score, replicate C":-1.1,"Call":"inactive"}
